Data from patent US20260137677A1, “PROTACS USEFUL AGAINST THE MAIN PROTEASE SARS-COV-2” (Tocris Cookson Limited, priority 2022, published 2026).
The structures given here were assigned with low confidence; some may be wrong.

Tests used:
[1] = tested on: SARS-CoV-2 (SARS-CoV2/ZG/297-20) in Vero E6 cells; experiment: Antiviral assay in Vero E6 cells infected with SARS-CoV-2 (cell viability, Cell Titer Glo); settings: Vero E6, MOI 0.05; for Antiviral Activity 10 uM: 10 uM compound; for Antiviral Activity 50 uM: 50 uM compound
Procedure: Vero E6 cells (2×10^4/well) were seeded in 96 well plates one day before the experiment. Pre-treatment, the medium was removed and compounds were added at concentrations varying from 0.1-100 μM. After 24 h incubation, the medium was removed and cells were infected with MOI 0.05 SARS-CoV-2 SARS-CoV2/ZG/297-20. After 1 h infection, the viruses were removed and the same concentration of compounds were added back into the cells. After 72 h incubation at 37° C., EC50 measurements were made using ATP quantification (Cell Titer Glo).

[2] = target: recombinant SARS-CoV-2 main protease (Mpro) (Severe acute respiratory syndrome coronavirus 2, UniProt P0DTD1); experiment: IC50 FRET assay, inhibition of recombinant SARS-CoV-2 main protease; settings: Mpro 50 nM, substrate 10 μM

SMILES	Antiviral Activity 10 uM [1]	Antiviral Activity 50 uM [1]	IC50 [2]
O=C1CCC(N2C(=O)c3cccc(NCCOCCOCCOCCOCCNC(=O)[C@H](NC(=O)[C@@H](c4cccnc4)N(C(=O)c4ccco4)c4ccc(-c5ccccc5)cc4)c4ccccc4)c3C2=O)C(=O)N1 (stereo partly drawn)	E (<0%=E)	E (<0%=E)	< 1 µM
O=C1CCC(N2C(=O)c3cccc(NCCCCCCCCCCNC(=O)C(NC(=O)C(c4cccnc4)N(C(=O)c4ccco4)c4ccc5c(c4)oc4ccccc45)c4ccccc4)c3C2=O)C(=O)N1 (stereo not drawn)	E (<0%=E)	D (<25%=D)	> 25 µM
